# In article PMC6919601, “Identification of Plasmodium dipeptidyl aminopeptidase allosteric inhibitors by high throughput screening” (PLoS ONE, 2019):
# Amino acid sequences for entries named in this document (tags omitted). Residues count along the entry.
# UniProt Q8I6U4, 244-484 limits assumed: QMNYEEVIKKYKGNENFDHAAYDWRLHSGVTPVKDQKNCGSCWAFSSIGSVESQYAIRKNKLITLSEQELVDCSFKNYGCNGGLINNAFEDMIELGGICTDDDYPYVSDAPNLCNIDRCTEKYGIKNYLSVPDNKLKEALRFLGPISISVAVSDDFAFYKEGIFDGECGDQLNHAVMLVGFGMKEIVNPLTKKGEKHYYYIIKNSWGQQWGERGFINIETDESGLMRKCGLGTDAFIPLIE
# Assays:
# P. falciparum = assay: Standard 72 h parasite replication assay; conditions: 72h replication assay
# FP2 = FP2 (Plasmodium falciparum, UniProt Q8I6U4)
# CASPASE-2 = conditions: ref previous HTS campaigns performed at the SMDC; cited from earlier work
# CASPASE-6 = conditions: ref previous HTS campaigns performed at the SMDC; cited from earlier work
Structure (SMILES),Pf % Inh @ 100 μM (P. falciparum),IC50 (FP2) [µM],CASPASE-2 %Inhibition @ 10 uM (CASPASE-2) [%],CASPASE-6 %Inhibition @ 10 uM (CASPASE-6) [%]
N#Cc1c(C(F)(F)F)cc(-c2cccs2)nc1SCC(=O)N1CCOCC1 [compound 97214],N.D. 32 (4) %,0.25,-12,-2.46
O=C(c1cccnc1)c1conc1C(=O)c1ccc(Br)cc1 [compound 112054],–,0.95,-3,-3.25

# The structures given here were assigned with low confidence; some may be wrong.
